The target in the test is T1, LSD1 (Homo sapiens, UniProt O60341).
T1 construct: made in house; host or cells: Escherichia coli Rosetta 2 (pET15b)
Nature of the test: HRP-coupled fluorescence LSD1 demethylation activity and inhibition assay, substrate H3_1-21 K4(Me). Type of test: biochemical. The following applies: relative to H3_1-11 K4M (4).

As for `CSCC[C@@H]1NC(=O)[C@H](NC(=O)[C@H](CCCNC(=N)N)NC(=O)[C@H](C)N)CCCCNC(=O)CC[C@@H](C(=O)N[C@@H](C)C(=O)N[C@@H](CCCNC(=N)N)C(=O)N[C@@H](CCCCN)C(=O)N[C@@H](CO)C(=O)N[C@H](C(N)=O)[C@@H](C)O)NC(=O)[C@H](CCC(N)=O)NC1=O` (relative stereo) [Peptide 31], the “fold higher inhibition of LSD1 enzymatic activity than linear parent 4” value is listed as greater than 40 fold.

Values taken from article PMC7057333 (ACS Omega, 2020).
